Data source: PubChem BioAssay AID504761 (Drosophila RNAi Screening Center, 2011)
The screen tested about 22,000 reagents; this is an unselected part of those with a known target gene and a result. In the full data, 116 (0.52%) are marked active. 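Calls depend on retest data that are not deposited; infection was ranked per plate without normalising between plates; the unit of the infection score is not given.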 The raw values are shown without normalisation. A number with no mark means an inactive call. Names joined by + are all predicted targets of the reagent. Further read-outs or replicates are left out here. No sequences are given here. Not stated in the record: the amount of reagent, the time to read-out.

- Purpose: 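Genome-wide fly cell screen for genes dengue virus requires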 (primary screen)
- Cell system: D.Mel-2 cells from Drosophila
- Knock-down reagent: long dsRNA against Drosophila genes
- Treatment: infection with dengue virus type 2; dose and infection time not stated
- Detection: 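Per well on two replicate plates, imaging gave the percent of cells positive for viral envelope protein, ranked by infection, and a nuclear count of cells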
- Reading the numbers: infection score: higher = more virus-infected cells; cell count: higher = more cells in the well
- Active means: 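Very low infection ranking in both replicate wells (chance probability at most 0.065), then a retest showing infection dropped 1.5-fold or more at p below 0.05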
- Meaning of the calls: active = confirmed: knock-down lowers infection; inactive = not picked or not confirmed

| Gene | amplicon | infection score, replicate 1 | infection score, replicate 2 | cell count, replicate 1 |
| --- | --- | --- | --- | --- |
| CG1835 (GeneID 33057) | DRSC20560 | 4.38 | 1.21 | 5942 |
| CG6885 (GeneID 40041) | DRSC10740 | 3.33 | 0.96 | 6492 |
| heca (GeneID 43604) | DRSC22990 | 0.58 | 7.34 | 5313 |
| heca (GeneID 43604) | DRSC25796 | 3.31 | 0.92 | 5718 |
| Tsp3A (GeneID 31244) | DRSC18656 | – | 2.64 | 281 |
| Tsp3A (GeneID 31244) | DRSC25654 | 4.52 | 13.1 | 6464 |
| Top2 (GeneID 35225) | DRSC03459 | 3.33 | 2.58 | 1592 |
| CG14342 (GeneID 33310) | DRSC00372 | 4.4 | 1.76 | 6910 |
| CG14342 (GeneID 33310) | DRSC25128 | 3.1 | 7.09 | 6586 |
| wap (GeneID 33131) | DRSC20626 | 16 | 9.23 | 6756 |
| CG33639 (GeneID 32803) | DRSC19966 | 22.2 | 19.1 | 5479 |
| CG33639 (GeneID 32803) | DRSC22820 | 2.15 | 7.05 | 6846 |
| CG33639 (GeneID 32803) | DRSC23778 | 11.2 | 1.85 | 6830 |
| Obp44a (GeneID 35789) | DRSC06838 | 11.8 | 3.74 | 6290 |
| Obp44a (GeneID 35789) | DRSC26785 | 19.6 | 3.5 | 6200 |
| Poxn (GeneID 36741) | DRSC05589 | 0.67 | 0.8 | 6315 |
| Poxn (GeneID 36741) | DRSC07512 | 4.86 | 5.51 | 6891 |
| Poxn (GeneID 36741) | DRSC23830 | 7.38 | 10.6 | 6264 |
| mRpL46 (GeneID 38230) | DRSC08391 | 5.02 | 2.24 | 4923 |
| CG30377 (GeneID 50252) | DRSC06477 | 13.2 | 44 | 1528 |
| CG30377 (GeneID 50252) | DRSC25708 | 3.02 | 3.74 | 6087 |
| Mkp3 (GeneID 40081) | DRSC10084 | 12 | 8.53 | 5410 |
| Mkp3 (GeneID 40081) | DRSC10085 | 4.06 | 24.3 | 5373 |
| faf (GeneID 43749) | DRSC16942 | 0.68 | 6.23 | 1175 |
| sip3 (GeneID 43747) | DRSC15402 | 1.56 | 1.47 | 6233 |
| sip3 (GeneID 43747) | DRSC29484 | 3.2 | – | 875 |
| al (GeneID 33208) | DRSC00799 | 1.62 | 4.17 | 6614 |
| Ack-like (GeneID 36442) | DRSC07500 | 5.03 | 1.38 | 6316 |
| CG3735 (GeneID 37803) | DRSC04411 | 8.13 | 22.8 | 5902 |
| Usp12-46 (GeneID 42702) | DRSC16175 | 0.41 | 1.23 | 6272 |
| Ugt37B1 (GeneID 53584) | DRSC03225 | 9.77 | 12.2 | 6419 |
| CG5043 (GeneID 35046) | DRSC02805 | 2.69 | 7.71 | 6737 |
| CG5043 (GeneID 35046) | DRSC25720 | 3.76 | 1.79 | 6308 |
| CG34140 + Mkp | DRSC26000 | 9.03 | 21.4 | 6411 |
| PolQ (GeneID 41571) | DRSC17006 | 3.58 | 5.22 | 6229 |
| drk (GeneID 36497) | DRSC07606 | 5.69 | 18.5 | 5996 |
| drk (GeneID 36497) | DRSC27911 | 24.9 | 31.9 | 4700 |
| Amph (GeneID 36383) | DRSC07578 | 9.86 | 9.87 | 6117 |
| cag (GeneID 36157) | DRSC07587 | 6.45 | 8.21 | 6422 |
| cag (GeneID 36157) | DRSC29225 | – | 2.3 | 372 |

Copied from the list.
al (GeneID 33208) [DRSC00799], infection score, replicate 2: 4.17
For “infection score, replicate 1”, sip3 (GeneID 43747) [DRSC29484] reads 3.2
Ugt37B1 (GeneID 53584) [DRSC03225], cell count, replicate 1 = 6419
